1 sequence from publication PMC5355980 can be followed below.

The exact form of at least one protein or probe is not confirmed.

The subject of this series is LuxR (LuxR-annotated transcriptional regulator). As to the kind of experiment: EMSA. Particulars: 20 mM Tris-HCl pH 7.4, 50 mM KCl, 1 mM EDTA, 1 mM DTT, 5% glycerol, 100 ug/mL BSA, supplemented with 10 uM oxo-C12-HSL, 50 ng DNA, 3-30 ng His-LuxR, recombinant protein, residues 1-1024, protein details: N-terminal His (pTrcHis TOPO), probe letters rebuilt from the primers and the genome. A general note: In EMSA bound probe runs differently from free probe, usually more slowly.

Take “GGATGAAGTAAAGATATTAGCTAGGGTTATCAAAATGATATAAGTTATAAAGCTTTAAAAATTAGCTCTCATTTTTGTCGTTATTGTTTGAAAAATATAGTTTTTTAGAGAAAATTATTATTTTTTTTGTCATTTTTGATAATATTAAAAAGAAAGGGTTTACATATTAATCATTTTTTACTATAATAAAAGTGATAAGAACTAGATAGTTGTTGTGTTACAACAGTACAATTGAGCTAGCCTTGTCCTTGTTGTGTTAACTTTATTTTTAAAATAAGGTTAAAAATAAACGACTCGTGTTCTTATCAGTTACTTATTAGATAAGGAGGTAAACC (double strand) [sagA promoter probe, 334 bp]”: the binding result is, setting by setting: (10 uM oxo-C12-HSL) “binds”; (no oxo-C12-HSL) “binds”.
